Source: patent US7964221B2, “Composition and methods of use of an immunomodulator” (priority 2006, dated 2011)

What was measured:
[1] = 32-week three-arm HIV trial: liver function test (ALT, AST)
[2] = 32-week three-arm HIV trial: adverse events and laboratory abnormalities; type: in vivo, human
Excerpt: All participants were antiretroviral drug naive.
Laboratory abnormalities were graded.

[3] = possibly related to treatment, moderate or severe intensity

zidovudine (AZT), lamividine (3TC), and efavirenz (EFV) [AZT/3TC/EFV]
Median cumulative change from baseline ALT values ([1]; 12 weeks): +22 U/L
Mean baseline values of AST ([1]; baseline): 42 U/L
Mean baseline values for ALT ([1]; baseline (Before)): 36 U/L
Number of patients with ART related hepatotoxicity ([1]; over 32 weeks): 6 (30%) N(%)
Median cumulative change from baseline ALT values ([1]; week 20): +30 U/L
ALT values (AST marker paragraph), mean ([1]; week 32): 68 U/L
Median cumulative change from baseline ALT values ([1]; week 32): +42 U/L
Mean ALT values at study conclusion ([1]; week 32 (After)): 78 U/L
↑Alanine aminotransferase ([2]; laboratory abnormalities): 6(30%) N(%)
↑Aspartate aminotransferase ([2]; laboratory abnormalities): 5(25%) N(%)
↑Cholesterol ([2]; laboratory abnormalities): 2(10%) N(%)
↓ Neutrophils ([2]; laboratory abnormalities): 2(10%) N(%)
↓Haemoglobin ([2]; laboratory abnormalities): 2(10%) N(%)
Patients who needed replacement therapy due to progressive fatigue, vomiting and gastrointestinal disorders, and/or hepatotoxicity ([2]; over 32 weeks): 30%
Patients who refused further therapy ([2]; over 32 weeks): 5%
Patients with serious adverse events possibly or probably related to study medication ([2]; over 32 weeks): 35%
Proportion of patients with at least one adverse event possibly and probably related to study medications ([2]; over 32 weeks): 65%
Abdominal pain [2, 3]: 7(35%) N(%)
Diarrhea [2, 3]: 6(30%) N(%)
Fatigue [2, 3]: 11(55%) N(%)
Headache [2, 3]: 3(15%) N(%)
Nausea [2, 3]: 7(35%) N(%)
Vomiting [2, 3]: 2(10%) N(%)
